Pooled drug test results. Numbers come from NIAID ChemDB, via PubChem.

Shared fields: whole-cell or culture tests; organism: Mycobacterium tuberculosis

A number after MIC or MFC names an inhibition level or a share of isolates. ECn: concentration that inhibits the pathogen or its effect by n%. MIC bound: limit read from a one-dose screen. Inhibition is in % at the dose shown (toxicity tests: loss of growth or viability). Conditions beyond the fields shown may differ between rows. a–b is a range or a potency band. An empty or dashed field is not shown.

structure | method | tested at | strain or isolate | setting | measure | changes | value
Cc1ccc2c(N3CCOCC3)c(C)c(N3CCCCC3)nc2n1 | BACTEC | - | H37Rv | - | EC50 | - | >6.25 µg/mL
N#Cc1c(N)[n+]([O-])c2c([n+]1[O-])CCCC2 | BACTEC | - | H37Rv | - | MIC bound | - | >12.5 µg/mL
CCCCCCCCN1C(=O)c2cc(Cl)nnc2Oc2ccc(C)cc21 | BACTEC | 12.5 µg/mL | H37Rv | - | inhibition | - | 19%
COc1ccc(NC(=O)OCCN(C)C)cc1 | - | - | My 331/88 | - | MIC | - | >1000 µM
Clc1ccc2c(Cl)cc(N3CCOCC3)nc2n1 | BACTEC | - | H37Rv | - | EC50 | - | >6.25 µg/mL
CCCCCCOc1ccccc1NC(=O)OCCN1CCCCCC1 | - | - | My 331/88 | - | MIC | - | 16 µM
Nc1nc(N)c2c(n1)Nc1ccc(Cl)nc1S2 | BACTEC | - | H37Rv | - | MIC bound | - | >12.5 µg/mL
CCSCC(=O)SCC1CS1 | - | - | H37Rv | - | MIC | - | 6.25 µg/mL
CC1COc2c(N3CCN(C(N)=NC#N)CC3)c(F)cc3c(=O)c(C(=O)O)cn1c23 | broth dilution | - | ATCC35821 | - | MIC | - | 0.625–1.25 µg/mL
CCOC(=O)N1CCN(c2ccc3cc(-c4ccccc4)c(=O)[nH]c3n2)CC1 | BACTEC | 6.25 µg/mL | H37Rv | - | inhibition | - | 16%
CCCCn1c(-c2ccc([N+](=O)[O-])cc2)cs/c1=N\N=C1/C(=O)Nc2ccc(Br)cc21 | - | - | H37Rv | - | MIC | - | 6.25 µg/mL
Cc1c(NC(=O)CCl)c(=O)n(-c2ccccc2)n1C | BACTEC | - | H37Rv | - | MIC | - | ≥12.5 µg/mL
CCOC(=O)c1c(N)sc2c1CCCC2 | resazurin | - | H37Rv | - | MIC | - | >400 µM
CCSCC(=O)OCC(S)CS | - | - | H37Rv | - | MIC | - | 25 µg/mL
C=CCNC(=S)N=Nc1c(O)n(C(C)=O)c2ccccc12 | - | - | H37Rv | - | MIC | - | >12.5 µg/mL
COC(=O)C1(OC(=O)CCC(=O)O)C(=O)NC2=C1C(=O)c1ccccc1C2=O | resazurin | 6.25 µg/mL | H37Rv | - | inhibition | - | 7%
CCOC(=O)c1c(NC(=O)c2c(F)c(F)c(F)c(F)c2F)sc2c1CCN(CC)C2 | low oxygen | - | H37Rv | - | EC50 | - | 0.27 µM
CCN(CC)CCNC(=O)c1nn(-c2ccc(C)cc2)c2c1N(C)S(=O)(=O)c1ccccc1-2 | resazurin | 6.25 µg/mL | H37Rv | - | inhibition | - | 20%
CCCCCCCCOc1ccccc1NC(=O)OCCN1CCOCC1 | - | - | My 331/88 | - | MIC | - | 32 µM
S=C(S)NNc1ccccc1 | - | - | TAC-R | - | MIC | - | >12.5 µg/mL
CO[C@H]1/C=C/O[C@@]2(C)Oc3c(C)c(O)c4c(O)c(c5c(c4c3C2=O)NC2(CCN(CC(C)C)CC2)N=5)=NC(=O)/C(C)=C\C=C\[C@H](C)[C@H](O)[C@@H](C)[C@@H](O)[C@@H](C)[C@H](OC(C)=O)[C@@H]1C | - | - | 1 isolates (Gln490His) | - | MIC | - | >5 µg/mL
Nc1nc(-c2ccc(Cl)cc2)c(N=Nc2cccc([N+](=O)[O-])c2)s1 | BACTEC | - | H37Rv | - | MIC bound | - | >6.25 µg/mL
Cc1c(C(=O)O)s/c(=N\N=C2/C(=O)Nc3ccccc32)n1-c1ccccc1.O | - | - | H37Rv | - | MIC | - | >12.5 µg/mL
O=C(Nc1ccc(Cl)cc1)c1cc(Cl)ccc1OP(=O)(c1ccccc1)c1ccccc1 | - | - | My 331/88 | 14 d | MIC | - | 4 µM
CC1(C)CN(CCO)C(C)(C)CN1 | BACTEC | - | H37Rv | - | MIC | - | ≥12.5 µg/mL
NNC(=O)c1ccncc1 | - | - | H37Rv | - | MIC | - | 0.05 µg/mL
CC(=O)OCC(CSC(C)=O)SC(C)=O | - | - | H37Rv | - | MIC | - | 0.8 µg/mL
CO[C@H]1/C=C/O[C@@]2(C)Oc3c(C)c(O)c4c(O)c(c(/C=N/N5CCN(C)CC5)c(O)c4c3C2=O)NC(=O)/C(C)=C\C=C\[C@H](C)[C@H](O)[C@@H](C)[C@@H](O)[C@@H](C)[C@H](OC(C)=O)[C@@H]1C | resazurin | - | H37Rv | - | MIC | Rifampicin-resistant D94N | 0.02 µM
CCCCOc1cccc(NC(=O)OCCN2CCCCC2)c1 | - | - | My 331/88 | - | MIC | - | 62.5 µM
C/C(=N\NC(=S)N(C)C)c1ccccn1.[Cu][Br] | - | - | H37Rv | - | MIC90 | - | 12.5 µM
CC(=O)SCC1(C)CS1 | - | - | H37Rv | - | MIC | - | 50 µg/mL
C=CCN=C(N=Nc1c(O)[nH]c2ccccc12)SCC(=O)c1ccc([N+](=O)[O-])cc1 | - | 12 µg/mL | H37Rv | - | inhibition | - | 4%
O=C(Nc1ccc(Cl)cc1)c1cc(Cl)ccc1OP(=O)(Oc1ccccc1)Oc1ccccc1 | - | - | My 331/88 | 7 d | MIC | - | 4 µM
c1cc2c(N3CCOCC3)cc(N3CCOCC3)nc2nc1N1CCOCC1 | BACTEC | - | H37Rv | - | EC50 | - | >6.25 µg/mL
COc1ccc2c(c1OC)C1=C(C2=O)c2cc3c(cc2CCN1)OCO3 | BACTEC | - | H37Rv | - | MIC | - | ≥12.5 µg/mL
O=C1c2cc(Cl)ccc2OP(=O)(c2ccccc2)N1c1ccc(C(F)(F)F)cc1 | - | - | My 331/88 | 14 d | MIC | - | 1 µM
CO[C@H]1/C=C/O[C@@]2(C)Oc3c(C)c(O)c4c(O)c(c(/C=N/N5CCN(C6CCCC6)CC5)c(O)c4c3C2=O)NC(=O)/C(C)=C\C=C\[C@H](C)[C@H](O)[C@@H](C)[C@@H](O)[C@@H](C)[C@H](OC(C)=O)[C@@H]1C | - | - | 13684 | - | MIC | - | 0.02 µg/mL
Cc1nc(N)c2ncn([C@@H]3O[C@H](CO)[C@@H](O)[C@H]3O)c2n1 | - | - | Erdman (ATCC 35801) | - | MIC | - | <1.56 µg/mL
O=C(OCC(S)CS)c1ccc(Cl)cc1Cl | - | - | H37Rv | - | MIC | - | 25–50 µg/mL
O=C1O[C@H]([C@@H](O)CO)C(O)=C1O | BACTEC | - | H37Rv | - | MIC | - | ≥128 µg/mL
Clc1cc(N2CCOCC2)nc2nc(N3CCCCC3)ccc12 | BACTEC | - | H37Rv | - | EC50 | - | >6.25 µg/mL
C=C(C)[C@@H]1CC[C@]2(C)CC[C@]3(C)[C@H](CC[C@@H]4[C@@]5(C)CC[C@H](OC(C)=O)C(C)(C)[C@@H]5CC[C@]43C)[C@@H]12 | - | - | H37Rv | - | MIC | - | >128 µM
O=C1CC(SC(=S)N2CCCCC2)C(=O)N1c1ccccc1 | - | - | PZA-R | - | MIC | - | 6.4 µg/mL
CCCCCCCCCN1C(=O)c2ccnnc2Oc2cc(C)ccc21 | BACTEC | 12.5 µg/mL | H37Rv | - | inhibition | - | 0%
C=C1C(=O)O[C@@H]2C[C@@]3(C)C=C[C@H](O)C(=C)[C@@H]3C[C@H]12 | - | - | H37Rv | - | MIC | - | 32 µg/mL
CN[C@@H]1[C@H](O[C@H]2[C@H](O[C@H]3[C@H](O)[C@@H](O)[C@H](N=C(N)N)[C@@H](O)[C@@H]3N=C(N)N)O[C@@H](C)[C@]2(O)C=O)O[C@@H](CO)[C@H](O)[C@H]1O | - | - | 4931/83 (streptomycin-resistant) | - | MIC | - | 25–50 µg/mL
COC(=O)Nc1nc2ccc(C(=O)c3cccs3)cc2[nH]1 | BACTEC | 0.5 µM | - | - | inhibition | - | 0%
O=C(CSc1nc2ccc(Cl)cc2c(=O)n1-c1ccccc1)N=Nc1c(O)[nH]c2ccc(Br)cc12 | - | - | H37Rv | - | EC50 | - | <12 µg/mL
O=C(O)C1CC2C3(Cl)C(Cl)=C(Cl)C(Cl)C2(CC1c1c2ccc(=O)c(O)c-2oc2c(O)c(O)ccc12)C3(Cl)Cl | BACTEC | - | H37Rv | - | MIC bound | - | >12.5 µg/mL
CC1S/C(=N\N=C2/C(=O)Nc3ccccc32)N(c2ccc(Cl)cc2)C1=O | - | - | H37Rv | - | MIC | - | >12.5 µg/mL
O=C(/C=C/c1ccccc1)c1cc(Cl)ccc1O | - | - | H37Rv | - | EC50 | - | <12.5 µg/mL
CCCCCCOc1ccccc1NC(=O)OCC[NH+]1CCCC1 | - | - | My 331/88 | - | MIC | - | 62.5 µM
CCCCCCCCCN1C(=O)c2cc(Cl)nnc2Oc2cc(C)ccc21 | BACTEC | - | H37Rv | - | EC50 | - | >12.5 µg/mL
NNC(=O)c1ccncc1 | resazurin | - | H37Rv | - | MIC | Rifampicin-resistant D94N | 0.32 µM
Nc1ccc(C(=O)/C=C/c2ccccc2)cc1 | - | - | - | - | EC50 | - | >12.5 µg/mL
O=C(Nc1ccc(C(F)(F)F)cc1)c1cc(Cl)ccc1OP(=O)(c1ccccc1)c1ccccc1 | - | - | Praha 1 | 14 d | MIC | - | 1 µM
CCCCC(=O)N/N=C/c1cc(Cl)cc(Cl)c1O | BACTEC | - | H37Rv | - | MIC | - | ≥12.5 µg/mL
CCCCCOc1ccc(NC(=O)OCCN(C)C)cc1 | - | - | My 331/88 | - | MIC | - | 62.5 µM
O=C(COc1ccccc1)N=Nc1c(O)n(CN2CCOCC2)c2ccccc12 | - | - | H37Rv | - | MIC | - | >12.5 µg/mL
O=[N+]([O-])c1ccc(N/N=C/c2ccccc2O)nc1 | BACTEC | 12.5 µg/mL | H37Rv | - | inhibition | - | 9%
C=C[C@]1(C)C=C2CC[C@@H]3[C@](C)(CCC[C@@]3(C)C(=O)O)[C@H]2CC1 | - | - | H37Rv | - | MIC | - | 15 µg/mL
C=CCN=C(N=Nc1c(O)[nH]c2ccc(Br)cc12)SCC(=O)c1ccc(Br)cc1 | - | - | H37Rv | - | EC50 | - | <12 µg/mL
CCOC(=O)c1c(NC(=O)c2ccccc2)sc2c1CCCC2 | resazurin | - | H37Rv | - | MIC | - | >600 µM
COc1ccc(C2CC(=O)c3c(OC)cc(OC)cc3O2)cc1 | - | - | H37Rv | - | EC50 | - | >12.5 µg/mL
NS(=O)(=O)c1ccc(SSc2ccc(S(N)(=O)=O)cc2[N+](=O)[O-])c([N+](=O)[O-])c1 | BACTEC | 12.5 µg/mL | H37Rv | - | inhibition | - | 0%
CCOC(=O)c1c(N)sc2c1CCN(C(=O)OC(C)(C)C)C2 | resazurin | - | H37Rv | - | MIC | - | >300 µM
O=C(Nc1ccc(C(F)(F)F)cc1)c1cc(Br)ccc1OP(=O)(Oc1ccccc1)Oc1ccccc1 | - | - | My 331/88 | 7 d | MIC | - | 2 µM
COc1ccc(Cc2nccc3cc(OC)c(OC)cc23)cc1OC | BACTEC | 128 µg/mL | H37Rv | - | inhibition | - | 68%
COc1ccc(C(=O)OCC(S)CS)cc1 | - | - | H37Rv | - | MIC | - | 25 µg/mL
CCCOc1cccc(NC(=O)OCCN(C)C)c1 | - | - | My 331/88 | - | MIC | - | 500 µM
O=C(/C=C/c1ccc(I)cc1)c1ccccc1O | - | - | - | - | EC50 | - | >12.5 µg/mL
C[C@H](CC[C@H]1OC1(C)C)[C@H]1CC[C@@]2(C)[C@@H]3CC[C@H]4C(C)(C)[C@H](O)CC[C@@]45C[C@@]35CC[C@]12C | - | - | H37Rv | - | MIC | - | 8 µg/mL
O=C(/C=C/c1ccc([O-])c(C[O-])c1)c1cccc(O)c1 | - | 12.5 µg/mL | H37Rv | - | inhibition | - | 53%
CSc1nc(-c2ccccc2)c(C#N)c(=O)[nH]1 | BACTEC | - | H37Rv | - | MIC bound | - | >12.5 µg/mL
Cc1ccc2c(c1)N(CCC(C)C)C(=O)c1cc(Cl)nnc1O2 | BACTEC | 12.5 µg/mL | H37Rv | - | inhibition | - | 75%
CCOC(=O)c1c(N)sc2c1CCN(CC)C2 | resazurin | - | H37Rv | - | MIC | - | >300 µM
CC(=O)NC[C@H]1CN(c2ccc(N3CCN(Cc4ccc([N+](=O)[O-])s4)CC3)c(F)c2)C(=O)O1 | - | - | 16 isolates (MDR) | - | MIC50 | - | 0.25 µg/mL
CC(C)N=c1cc2n(-c3ccc(Cl)cc3)c3ccccc3nc-2cc1Nc1ccc(Cl)cc1 | - | - | 2219 (INH RIF-RES) | - | MIC | - | 0.12 µg/mL
CCCCCCOc1ccccc1NC(=O)OCCN(C)C | - | - | My 331/88 | - | MIC | - | 62.5 µM
COc1ccc(Br)c2c1C(=O)CC(c1ccccc1)O2 | - | - | - | - | EC50 | - | <12.5 µg/mL
CCN(CC)CCCN=c1cc2n(-c3ccc(Cl)cc3)c3ccccc3nc-2cc1Nc1ccc(Cl)cc1 | - | - | H37Rv | - | MIC | - | 0.5 µg/mL
CCn1c(SCC(=O)N=Nc2c(O)[nH]c3ccc(Br)cc23)nc2ccccc2c1=O | - | - | H37Rv | - | MIC | - | >12.5 µg/mL
CCN=c1cc2n(-c3ccc(Cl)cc3)c3ccccc3nc-2cc1Nc1ccc(Cl)cc1 | - | - | 2225 (SM INH RIF-RES) | - | MIC | - | 0.25 µg/mL
CC1/C(=N\O)CC(c2ccccc2)N(C)C1c1ccccc1 | resazurin | - | H37Rv | - | MIC bound | - | >6.25 µg/mL
CO[C@H]1/C=C/O[C@@]2(C)Oc3c(C)c(O)c4c(O)c(c5c(c4c3C2=O)NC2(CCN(CC(C)C)CC2)N=5)=NC(=O)/C(C)=C\C=C\[C@H](C)[C@H](O)[C@@H](C)[C@@H](O)[C@@H](C)[C@H](OC(C)=O)[C@@H]1C | - | - | Isolate 910328 rifampicin-resistant | - | MIC | - | 16 µg/mL
NNC(=O)c1ccccc1SSc1ccccc1C(=O)NN | - | - | KM-R | - | MIC | - | >12.5 µg/mL
O=C1c2cc(Br)ccc2OP(=O)(c2ccccc2)N1c1ccc(C(F)(F)F)cc1 | - | - | Praha 1 | 14 d | MIC | - | 1 µM